Compound potency records, mixed from different reports. Data source: NIAID ChemDB in PubChem.

Shared fields: enzyme or target tests; agent: HIV-1; protein: Integrase; read-out: inhibition

Inhibition is in % at the dose shown (toxicity tests: loss of growth or viability). Rows are shuffled and stem from different studies. An empty or dashed field is not shown.

structure	read by	dose	value
CN(CCOc1ccc(Cl)cc1Cc1ccccc1)C(=O)/C=C(\O)C(=O)O	strand transfer	70 µM	75%
O=C(/C=C/c1ccc(O)c(O)c1)NCCCC[C@H](NC(=O)/C=C/c1ccc(O)c(O)c1)C(=O)O	3′ processing	10 µM	78%
CN(Cc1ccc(Cl)c(Cl)c1)C(=O)/C=C(\O)C(=O)O	strand transfer	70 µM	100%
O=C(NCCCC(NC(=O)c1cc(O)c(O)c(O)c1)C(=O)O)c1cc(O)c(O)c(O)c1	3′ processing	10 µM	95%
Cc1ccc2c(c1)c(C1CCCCC1)nc1ccccc12	strand transfer	50 µM	20.65%
C#CCNC/C(=C\c1cccc(OCC)c1OCc1ccccc1)C(=O)OC		10 µM	51.3%
COc1ccc2[nH]c(=O)c(CNC3CCCCC3)cc2c1	strand transfer / absorbance	20 µM	44.3%
Cc1ccc(S(=O)(=O)Nc2cc(Cl)c3ccc(/C=C/c4ccccc4)nc3c2O)cc1	strand transfer	0.05 µM	82%
CCCCCCCCCCCCCCCC(=O)NC1C(COP(=O)(O)OC2C(O)C(COP(=O)(O)OC3CC(CO)OC3n3cnc4c(N)ncnc43)OC2n2cnc3c(N)ncnc32)OC(n2cnc3c(N)ncnc32)C1O		1000 µM	0%
COC(=O)C(CCCNC(=O)/C=C/c1ccc(O)c(O)c1)NC(=O)/C=C/c1ccc(O)c(O)c1	3′ processing	10 µM	99%
O=C(/C=C(\O)C(=O)O)NCc1ccc(C(F)(F)F)cc1	strand transfer	70 µM	60%
C#CCNC/C(=C\c1cccc(OC)c1OCc1ccccc1)C(=O)OC		10 µM	15.2%
COc1ccc(S(=O)(=O)Nc2cc(Cl)c3ccc(/C=C/c4ccc(O)cc4)nc3c2O)cc1	strand transfer	0.05 µM	101%
COC(=O)c1cc(O)c(O)c(O)c1	3′ processing	125 µM	40.1%
COc1ccccc1CNC(=O)/C=C(\O)C(=O)O	strand transfer	70 µM	55%
Cc1ccc(Cn2c3ccccc3c3cc(C(=O)NO)ncc32)cc1	strand transfer	50 µM	9%
COC(=O)C(CNCc1cn([C@H]2C[C@H](n3cc(C)c(=O)[nH]c3=O)O[C@@H]2CO)nn1)C(O)c1cc(Cl)ccc1OCc1ccccc1		10 µM	32.6%
COc1ccc2[nH]c(=O)c(CNC3CCCC3)cc2c1	strand transfer / absorbance	20 µM	60.1%
CC(C)[C@H](NC(=O)[C@H](Cc1ccccc1)NC(=O)[C@H](CCCN=C(N)N)NC(=O)[C@@H](N)Cc1c[nH]c2ccccc12)C(=O)N[C@@H](CO)C(=O)N[C@@H](CCC(N)=O)C(=O)O		0.39 µM	25%
O=C(/C=C/c1ccc(O)c(O)c1)NCC(NC(=O)/C=C/c1ccc(O)c(O)c1)C(=O)O	3′ processing	10 µM	100%
O=S(=O)(Nc1cc(Cl)c2ccc(/C=C/c3ccccc3)nc2c1O)c1ccccc1	strand transfer	0.05 µM	95.9%
COC(=O)C(CCNC(=O)/C=C/c1cc(O)c(O)c(O)c1)NC(=O)/C=C/c1cc(O)c(O)c(O)c1	3′ processing	10 µM	100%
COc1ccc2[nH]c(=O)c(CN(C(=O)c3ccccc3)C3CCCCC3)cc2c1	strand transfer / absorbance	20 µM	38.4%
Cc1cc(C)n(Cc2ccc3[nH]cc(C(=O)O)c(=O)c3c2)n1	strand transfer	100 µg/mL	<50%
O=C(NCCCC(NC(=O)c1ccc(O)c(O)c1)C(=O)O)c1ccc(O)c(O)c1	3′ processing	10 µM	0%
O=C(c1ccccc1)N(Cc1cc2ccccc2[nH]c1=O)C1CCCCC1	strand transfer / absorbance	20 µM	32.8%
CCCCOC(=O)C(CNCc1cn([C@H]2C[C@H](n3cc(C)c(=O)[nH]c3=O)O[C@@H]2CO)nn1)C(O)c1cccc(OC)c1O		10 µM	21.6%
O=C(NCCCC[C@H](NC(=O)c1cc(O)c(O)c(O)c1)C(=O)O)c1cc(O)c(O)c(O)c1	3′ processing	10 µM	100%
C#CCNCC(C(=O)OCCCC)C(O)c1cc(Br)ccc1O		10 µM	16.1%
O=C(NCCC(NC(=O)c1cc(O)c(O)c(O)c1)C(=O)O)c1cc(O)c(O)c(O)c1	3′ processing	10 µM	100%
COc1ccc2[nH]c(=O)c(CNC3CC3)cc2c1	strand transfer / absorbance	20 µM	23.3%
C#CCNCC(C(=O)OCCCC)C(O)c1cc(Cl)ccc1O		10 µM	19.4%
Cc1cccc(CNC(=O)/C=C(\O)C(=O)O)c1	strand transfer	70 µM	70%
O=S(=O)(Nc1cc(Cl)c2ccc(/C=C/c3ccc(O)cc3)nc2c1O)c1ccc(Cl)cc1	strand transfer	0.05 µM	101.4%
COc1ccc2c(c1)c(/C(O)=C/C(=O)C(=O)O)cn2Cc1ccc(C(F)(F)F)cc1	AlphaScreen	100 µM	40%
COC(=O)/C(=C/c1cccc(OC)c1OCc1ccccc1)CNCc1cn([C@H]2C[C@H](n3cc(C)c(=O)[nH]c3=O)O[C@@H]2CO)nn1		10 µM	43.4%
COc1cccc2cc(CNC3CC3)c(=O)[nH]c12	strand transfer / absorbance	20 µM	31.2%
Cc1ccc(CNC(=O)/C=C(\O)C(=O)O)cc1	strand transfer	70 µM	80%

Repeating the final 5 entries:

{"structure": "O=S(=O)(Nc1cc(Cl)c2ccc(/C=C/c3ccc(O)cc3)nc2c1O)c1ccc(Cl)cc1", "read by": "strand transfer", "dose": "0.05 µM", "value": "101.4%"}
{"structure": "COc1ccc2c(c1)c(/C(O)=C/C(=O)C(=O)O)cn2Cc1ccc(C(F)(F)F)cc1", "read by": "AlphaScreen", "dose": "100 µM", "value": "40%"}
{"structure": "COC(=O)/C(=C/c1cccc(OC)c1OCc1ccccc1)CNCc1cn([C@H]2C[C@H](n3cc(C)c(=O)[nH]c3=O)O[C@@H]2CO)nn1", "dose": "10 µM", "value": "43.4%"}
{"structure": "COc1cccc2cc(CNC3CC3)c(=O)[nH]c12", "read by": "strand transfer / absorbance", "dose": "20 µM", "value": "31.2%"}
{"structure": "Cc1ccc(CNC(=O)/C=C(\\O)C(=O)O)cc1", "read by": "strand transfer", "dose": "70 µM", "value": "80%"}